Compound potency records, mixed from different reports. Data source: NIAID ChemDB in PubChem.

Common to all: cytotoxicity tests; cells: C8166; endpoint: CC50

CCn is the concentration with n% toxicity to the cells.

smiles | method | value
C=C(C)[C@]12C[C@@H](C)[C@@]34OC(c5ccccc5)(O[C@@H]1[C@@H]3[C@@H]1O[C@]1(CO)[C@@H](O)[C@@]1(O)[C@H]4C[C@H](C)[C@@H]1OC(=O)/C=C/c1ccccc1)O2 | MTT | 125.4 µM
C=C(C)[C@]12C[C@@H](C)[C@@]34OC(c5ccccc5)(O[C@@H]1[C@@H]3[C@@H]1O[C@]1(CO)[C@@H](O)[C@@]1(O)[C@H]4C[C@H](C)[C@@H]1OC(=O)c1ccccc1)O2 | MTT | >200 µM
CC(C)c1cc2c(c(O)c1O)[C@@]13CCCC(C)(C)C1CC2OC3=O | XTT | 40 µM
O=C1/C(=C\Oc2ccc([N+](=O)[O-])cc2)CC[C@@H]2[C@H]3CCCN4CCC[C@@H](CN12)[C@@H]34 | MTT | 97.96 µg/mL
Cc1cn([C@H]2C[C@H](N=[N+]=[N-])[C@@H](CO)O2)c(=O)[nH]c1=O | - | 5 µM
C=C(C)[C@]12C[C@@H](C)[C@@]34OC(CCCCCCCCCCCCCCC)(O[C@@H]1[C@@H]3[C@@H]1O[C@]1(CO)[C@@H](O)[C@]1(O)C(=O)C(C)=C[C@H]14)O2 | MTT | 22.8 µM
O=c1[nH]cnc2c1ncn2[C@H]1CC[C@@H](CO)O1 | - | 967 µM
C=C(C)[C@@]12OC3(c4ccccc4)O[C@@H]1[C@@H]1[C@@H]4O[C@]4(CO)[C@@H](O)[C@]4(O)C(=O)C(C)=C[C@H]4[C@@]1(O3)[C@H](C)[C@H]2OC(=O)/C=C/C=C/C=C/C(O)CC | MTT | 25.8 µM
Cc1cn([C@H]2C[C@H](N=[N+]=[N-])[C@@H](CO)O2)c(=O)[nH]c1=O | - | >0.004 µg/mL
Cc1ccc(C(C)C)c(O)c1 | XTT | 400 µM
Cc1cc(S(N)(=O)=O)ccc1NC(=O)COc1ccccc1NS(=O)(=O)c1ccc([N+](=O)[O-])cc1 | MTT | 213 µM
C=C(C)[C@@]1(O)[C@H](O)[C@@H]2[C@@H]3O[C@]3(CO)[C@@H](O)[C@]3(O)C(=O)C(C)=C[C@H]3[C@@]2(O)[C@H](C)[C@H]1OC(C)=O | MTT | >200 µM
C=C(C)[C@@]12OC3(c4ccccc4)O[C@@H]1[C@@H]1[C@@H]4O[C@]4(CO)[C@@H](O)[C@]4(O)C(=O)C(C)=C[C@H]4[C@@]1(O3)[C@H](C)[C@H]2OC(=O)/C=C/C=C/[C@@H]1O[C@@H]1CCC | MTT | 26.4 µM
Cc1cccc(OC2=C(C=O)CC[C@@H]3[C@H]4CCCN5CCC[C@@H](CN23)[C@@H]45)c1 | MTT | 92.6 µg/mL
C=C(C)[C@@]12OC3(c4ccccc4)O[C@@H]1[C@@H]1[C@@H]4O[C@]4(CO)[C@@H](O)[C@]4(O)C(=O)C(C)=C[C@H]4[C@@]1(O3)[C@H](C)[C@H]2OC(=O)c1ccccc1 | MTT | 92.3 µM
COc1ccc(S(=O)(=O)Nc2ccccc2OCC(=O)Nc2ccc(S(N)(=O)=O)cc2C)cc1 | MTT | 172.4 µM
C=C(C)[C@]1(O)C[C@@H](C)[C@@]2(O)[C@H]([C@H]1OC(=O)c1ccccc1)[C@@H]1O[C@]1(CO)[C@@H](O)[C@]1(O)C(=O)C(C)=C[C@H]12 | MTT | >200 µM
Cc1cc(S(N)(=O)=O)ccc1NC(=O)COc1ccc(Cl)cc1NS(=O)(=O)c1ccccc1 | MTT | >392 µM
C=C(C)[C@@]12OC3(c4ccccc4)O[C@@H]1[C@@H]1[C@H](O)[C@](O)(CO)[C@@H](O)[C@]4(O)C(=O)C(C)=C[C@H]4[C@@]1(O3)[C@H](C)[C@H]2OC(=O)c1ccccc1 | MTT | >200 µM
Cc1cn([C@@H]2O[C@H](CO[Si](C)(C)C(C)(C)C)C3(OS(=O)(=O)C=C3N)[C@H]2O[Si](C)(C)C(C)(C)C)c(=O)n(C)c1=O | - | >10 µM
NS(=O)(=O)c1ccc(NC(=O)COc2ccccc2NS(=O)(=O)c2ccc(Cl)cc2)cc1 | MTT | 201 µM
O=CC1=C(Oc2ccc3ccccc3c2)N2C[C@@H]3CCCN4CCC[C@@H]([C@H]34)[C@H]2CC1 | MTT | 69.11 µg/mL
C[C@@H]1O[C@@H](OC[C@H]2O[C@@H](Oc3c(-c4ccc(OS(=O)(=O)O)c(OS(=O)(=O)O)c4)oc4cc(OS(=O)(=O)O)cc(OS(=O)(=O)O)c4c3=O)[C@H](OS(=O)(=O)O)[C@@H](OS(=O)(=O)O)[C@@H]2OS(=O)(=O)O)[C@H](OS(=O)(=O)O)[C@H](OS(=O)(=O)O)[C@H]1OS(=O)(=O)O | - | 1295 µM
NS(=O)(=O)c1ccc(NC(=O)COc2ccc(Cl)cc2NS(=O)(=O)c2ccccc2)cc1 | MTT | 153 µM
C=C(C)[C@@]12OC3(/C=C/C=C/CCCCC)O[C@@H]1[C@@H]1[C@@H]4O[C@]4(CO)[C@@H](O)[C@]4(O)C(=O)C(C)=C[C@H]4[C@@]1(O3)[C@H](C)[C@H]2OC(=O)CC | MTT | >200 µM
O=CC1=C(Cl)N2C[C@@H]3CCCN4CCC[C@@H]([C@H]34)[C@H]2CC1 | MTT | 41.3 µg/mL
C=C(C)[C@]12C[C@@H](C)[C@@]34OC(/C=C/C=C/CCCCC)(O[C@@H]1[C@@H]3[C@@H]1O[C@]1(CO)[C@@H](O)[C@]1(O)C(=O)C(C)=C[C@H]14)O2 | MTT | 21.7 µM
Cc1ccc(S(=O)(=O)Nc2ccccc2OCC(=O)Nc2ccc(S(N)(=O)=O)cc2C)cc1 | MTT | 181 µM
C=C(C)[C@@]1(OC(=O)c2ccccc2)[C@H](OC(C)=O)[C@@H]2[C@H](OC(C)=O)[C@@]3(C)O[C@@]4([C@@H]3O)[C@@H](OC(=O)c3ccccc3)[C@@H](C)C[C@H]4[C@@]2(O)[C@H](C)[C@@H]1OC(C)=O | MTT | >200 µM
C=C(C)[C@@]12OC3(/C=C/C=C/C=C/CCC)O[C@@H]1[C@@H]1[C@@H]4O[C@]4(CO)[C@@H](O)[C@]4(O)C(=O)C(C)=C[C@H]4[C@@]1(O3)[C@H](C)[C@H]2OC(=O)/C=C/c1ccc(O)c(OC)c1 | MTT | 19.8 µM

The last 2 rows once more:

smiles,method,value
C=C(C)[C@@]1(OC(=O)c2ccccc2)[C@H](OC(C)=O)[C@@H]2[C@H](OC(C)=O)[C@@]3(C)O[C@@]4([C@@H]3O)[C@@H](OC(=O)c3ccccc3)[C@@H](C)C[C@H]4[C@@]2(O)[C@H](C)[C@@H]1OC(C)=O,MTT,>200 µM
C=C(C)[C@@]12OC3(/C=C/C=C/C=C/CCC)O[C@@H]1[C@@H]1[C@@H]4O[C@]4(CO)[C@@H](O)[C@]4(O)C(=O)C(C)=C[C@H]4[C@@]1(O3)[C@H](C)[C@H]2OC(=O)/C=C/c1ccc(O)c(OC)c1,MTT,19.8 µM

Conditions beyond the fields shown may differ between rows. Blank or dashed fields: not listed here.